A mixed list of measured activities; the numbers were collected in NIAID ChemDB.

All rows: enzyme or target tests; agent: Hepatitis C virus; protein: RNA-dependent RNA polymerase; read-out: IC50

a–b is a range or a potency band. Rows are shuffled and stem from different studies. ICn: concentration for n% inhibition.

structure,result
O=C(O)c1cc2nc(-c3ccc(Oc4ccccc4)cc3)cc(-c3cc(Cl)cc(Cl)c3)n2n1,>10 µM
O=C(O)C(Cc1ccccc1)N(Cc1cc(-c2ccc(F)c(Cl)c2)cs1)C(=O)c1ccc(Cl)cc1Cl,<5 µM
Cc1nc([C@H]2C[C@@](CC(C)C)(C(=O)O)N(C(=O)c3ccc(C(C)(C)C)cc3)[C@H]2c2nccs2)ns1,<50 µM
O=C(O)c1cc2nc(-c3ccc(C(F)(F)F)cc3)cc(-c3cc(Cl)cc(Cl)c3)n2n1,>10 µM
COc1cc(C)c(S(=O)(=O)N(Cc2c(C(=O)c3ccc(Cl)cc3)oc3ccccc23)[C@@H](Cc2ccccc2)C(=O)O)c(C)c1C,5–20 µM
C[N+]1(Cc2ccccc2)CCN(/N=C\c2cc(O)c(O)c(O)c2)CC1,10 µM
CC(C)C[C@@]1(C(=O)O)C[C@@H](c2nnco2)[C@H](c2nccs2)N1C(=O)c1ccc(C(C)(C)C)cc1,<50 µM
O=C(O)[C@H](Cc1ccccc1)N(Cc1ccc(-c2nccs2)o1)C(=O)c1ccc(Cl)cc1Cl,<5 µM
Oc1cc(/C=N\N2CCOCC2)cc(O)c1O,10 µM
CC(C)C[C@@]1(C(=O)O)C[C@@H](c2noc(=O)[nH]2)[C@H](c2nccs2)N1C(=O)c1ccc(C(C)(C)C)cc1,<50 µM
O=C(O)[C@@H]1C[C@@H](O)CN1C(=O)c1cnn2c(C3CCCCC3)c(-c3ccc(F)cc3)cnc12,>10 µM
CC(C)C[C@@]1(C(=O)O)C[C@@H](c2nc3ccccc3s2)[C@H](c2nccs2)N1C(=O)c1ccc(C(C)(C)C)c(Br)c1,<50 µM
O=C(O)c1cc2nc(-c3ccc(Cc4ccccc4)cc3)c(C3CCCCC3)c(=O)n2[nH]1,1–10 µM
CC(C)C[C@@]1(C(=O)O)C[C@H](c2nccs2)[C@H](c2nccs2)N1C(=O)c1ccc(C(C)(C)C)cc1,<50 µM
O=C(O)[C@@H](Cc1ccccc1)N(Cc1cc(Br)cs1)C(=O)c1ccc(Cl)cc1Cl,<5 µM
CN1CCN(/N=C\c2cc(O)c(O)c(O)c2)CC1,10 µM
O=C(O)[C@H](Cc1ccccc1)N(Cc1ccc(-c2ccc(Cl)cc2Cl)o1)C(=O)c1ccc(Cl)cc1Cl,<5 µM
CC(C)C[C@@]1(C(=O)O)C[C@H](c2nc(-c3ccc(F)cc3)no2)[C@H](c2nccs2)N1C(=O)c1ccc(C(C)(C)C)cc1,<50 µM
O=C(O)C(Cc1ccccc1)N(C(=O)c1ccc(Cl)cc1Cl)c1ccc(-c2cc3ccccc3o2)cc1,<5 µM
O=C(O)c1cc2nccc(-c3cccc(-c4ccc(Cl)cc4)c3)n2n1,1–10 µM
O=C(O)c1ccccc1-c1ccc(CN(C(=O)c2ccc(Cl)cc2Cl)[C@@H](Cc2ccccc2)C(=O)O)o1,<5 µM
NN1CCN(/N=C\c2ccc(O)c(O)c2)CC1,100–200 µM

The first 3 rows once more:

| structure | result |
|---|---|
| O=C(O)c1cc2nc(-c3ccc(Oc4ccccc4)cc3)cc(-c3cc(Cl)cc(Cl)c3)n2n1 | >10 µM |
| O=C(O)C(Cc1ccccc1)N(Cc1cc(-c2ccc(F)c(Cl)c2)cs1)C(=O)c1ccc(Cl)cc1Cl | <5 µM |
| Cc1nc([C@H]2C[C@@](CC(C)C)(C(=O)O)N(C(=O)c3ccc(C(C)(C)C)cc3)[C@H]2c2nccs2)ns1 | <50 µM |